According to BindingDB's records for US10087178 (Japan Tobacco, 2018):
pEC50: −log10 of the molar value.

Target: Protein Nef (Human immunodeficiency virus type 1 group M subtype B (isolate BRU/LAI), UniProt P03406)
Assay: Measurement of Antiviral (HIV-1) Activity

SMILES: COC[C@H]1C[C@]2(CN(C)C(=O)c3c(OC(=O)N(C)C)c(=O)c(C(=O)NCc4cccc(Cl)c4F)cn32)C1
- pEC50: 6.96
